Anti-infective test results gathered from many reports (values: NIAID ChemDB through PubChem).

Shared fields: tests on isolated targets; agent: Hepatitis C virus

Percent inhibition refers to the dose given; in toxicity tests it is the harm to the cells. ICn is the concentration giving n% inhibition. Conditions beyond the fields shown may differ between rows. a–b is a range or a potency band. Blank or dashed fields: not listed here.

COc1ccc(-c2cnc3cc(C(=O)O)nn3c2C2CCCCC2)cc1 ; endpoint: IC50 ; protein: RNA-dependent RNA polymerase ; result: >10 µM
O=C(NCc1ccccc1C(F)(F)F)Nc1ccsc1-c1nc(C(=O)O)c(O)c(=O)[nH]1 ; endpoint: IC50 ; protein: HCV polymerase ; result: <25 µM
COc1ccc(-c2cccc(Cl)c2)c(-c2ccc3cc(-c4nc5cc(C(=O)O)ccc5n4C4CCCCC4)ccc3n2)c1 ; endpoint: inhibition ; tested at: 33 µM ; protein: NS5B polymerase ; result: 98.76%
O=C(O)c1nc(-c2sccc2NS(=O)(=O)c2ccc3ccccc3c2)[nH]c(=O)c1O ; endpoint: IC50 ; protein: HCV polymerase ; result: <25 µM
O=C(O)C[C@H](Cc1ccccc1)NC(=O)c1cnn2c(C3CCCCC3)c(-c3ccc(F)cc3F)cnc12 ; endpoint: IC50 ; protein: RNA-dependent RNA polymerase ; result: 1–10 µM
O=C(NCc1ccccc1C(F)(F)F)Nc1cccc(-c2nc(C(=O)O)c(O)c(=O)[nH]2)c1 ; endpoint: IC50 ; protein: HCV polymerase ; result: <100 µM
O=C(O)c1cc2nccc(-c3ccc(-c4ccc(Cl)s4)cc3)n2n1 ; endpoint: IC50 ; protein: RNA-dependent RNA polymerase ; result: >10 µM
CC(NC(=O)Nc1cscc1-c1nc(C(=O)O)c(O)c(=O)[nH]1)c1cscn1 ; endpoint: IC50 ; protein: HCV polymerase ; result: <25 µM
O=C(O)c1ccc2c(c1)nc(-c1ccc3nc(-c4ccc(F)cc4)c(-c4ccc(F)cc4)nc3c1)n2C1CCCCC1 ; endpoint: inhibition ; tested at: 33 µM ; protein: NS5B polymerase ; result: 97.88%
O=C(O)c1cc2nc(-c3ccc(Cl)cc3Cl)cc(-c3ccc(-c4ccccc4)cc3)n2n1 ; endpoint: IC50 ; protein: RNA-dependent RNA polymerase ; result: 1–10 µM
CNC(=O)c1c(-c2ccc(F)cc2)oc2cc(C#N)c(OC(C)C)cc12 ; endpoint: IC50 ; protein: Nonstructural protein 5B ; result: ≤0.5 µM
O=C(O)c1cc2nc(-c3ccc(Cl)cc3)cc(NC3CCCCC3)n2n1 ; endpoint: IC50 ; protein: RNA-dependent RNA polymerase ; result: >10 µM
COc1ccc(-c2ccccc2F)c(-c2ccc3cc(-c4nc5cc(C(=O)O)ccc5n4C4CCCCC4)ccc3n2)c1 ; endpoint: inhibition ; tested at: 100 µM ; protein: NS5B polymerase ; result: 100%
CC(C)(C)OC(=O)Nc1cscc1-c1nc(C(=O)O)c(O)c(=O)[nH]1 ; endpoint: IC50 ; protein: HCV polymerase ; result: <25 µM
COc1ccc(-c2ccc(Cl)cc2)c(-c2ccc3cc(-c4nc5cc(C(=O)O)ccc5n4C4CCCCC4C)ccc3n2)c1 ; endpoint: inhibition ; tested at: 100 µM ; protein: NS5B polymerase ; result: 102%
O=C(N[C@@H](Cc1cc2ccccc2[nH]1)C(=O)O)c1cc2nc(OCc3ccccc3)c(CCC3CCCCC3)c(=O)n2[nH]1 ; endpoint: IC50 ; protein: RNA-dependent RNA polymerase ; result: <1 µM
COc1cc(OC)cc(-c2ccc3cc(-c4nc5cc(C(=O)O)ccc5n4C4CCCCC4)ccc3n2)c1 ; endpoint: inhibition ; tested at: 100 µM ; protein: NS5B polymerase ; result: 101%
COc1cccc(-c2cc(-c3cccc(Cl)c3)nc3cc(C(=O)O)nn23)c1 ; endpoint: IC50 ; protein: RNA-dependent RNA polymerase ; result: >10 µM
O=C(O)c1ccc2c(c1)nc(-c1ccc3nc(C(=O)N(c4ccc(Cl)cc4)C4CCCCC4)ccc3c1)n2C1CCCCC1 ; endpoint: inhibition ; tested at: 33 µM ; protein: NS5B polymerase ; result: 87.53%
O=C(O)c1nc(-c2ccccc2NS(=O)(=O)c2cccc3ccccc23)[nH]c(=O)c1O ; endpoint: IC50 ; protein: HCV polymerase ; result: <100 µM
CNC(=O)c1c(-c2ccc(F)cc2)oc2cc(C3(C)NC(=O)NC3=O)c(OC)cc12 ; endpoint: IC50 ; protein: Nonstructural protein 5B ; result: ≤0.5 µM
O=C(O)c1cc2nc(-c3ccc(-c4ccccc4F)cc3)c(C3CCCCC3)c(=O)n2[nH]1 ; endpoint: IC50 ; protein: RNA-dependent RNA polymerase ; result: 1–10 µM
CNC(=O)c1c(-c2ccc(F)cc2)oc2cc(-c3c(COC)noc3C3CC3)c(OC)cc12 ; endpoint: IC50 ; protein: Nonstructural protein 5B ; result: ≤0.5 µM
O=C(O)c1ccc2c(c1)nc(-c1ccc3nc(-c4cc(C(=O)N5CCCC5)ccc4-c4ccc(Cl)cc4)cnc3c1)n2C1CCCCC1 ; endpoint: inhibition ; tested at: 33 µM ; protein: NS5B polymerase ; result: 99.68%
CCN(c1cc2oc(-c3ccc(F)cc3)c(C(=O)NC)c2cc1F)S(C)(=O)=O ; endpoint: IC50 ; protein: Nonstructural protein 5B ; result: ≤0.5 µM
O=C(O)c1ccc2c(c1)nc(-c1ccc3nc(C(c4ccccc4)c4ccccc4)ccc3c1)n2C1CCCCC1 ; endpoint: inhibition ; tested at: 100 µM ; protein: NS5B polymerase ; result: 98.33%
Nc1cscc1-c1nc(C(=O)O)c(O)c(=O)[nH]1 ; endpoint: IC50 ; protein: HCV polymerase ; result: <25 µM

Repeating the final 2 entries:

SMILES | endpoint | tested at | protein | result
O=C(O)c1ccc2c(c1)nc(-c1ccc3nc(C(c4ccccc4)c4ccccc4)ccc3c1)n2C1CCCCC1 | inhibition | 100 µM | NS5B polymerase | 98.33%
Nc1cscc1-c1nc(C(=O)O)c(O)c(=O)[nH]1 | IC50 |  | HCV polymerase | <25 µM